Values quoted from earlier work in US20050192221A1, “Methods and compositions related to plunc polypeptides” (priority 2003, published 2005).

Tested on: Legionella spp.
Parameters: unit not given beside the values
Details: cited from earlier work

Structure (SMILES): CC[C@H]1OC(=O)[C@H](C)[C@@H](O[C@H]2C[C@@](C)(OC)[C@@H](O)[C@H](C)O2)[C@H](C)[C@@H](O[C@@H]2O[C@H](C)C[C@H](N(C)C)[C@H]2O)[C@](C)(O)C[C@@H](C)C(=O)[C@H](C)[C@@H](O)[C@]1(C)O [ERYTHROMYCIN, erythromycin]
- MIC90: 0.25
